Reference: article PMC6149971, “In Vivo and In Vitro Activities and ADME-Tox Profile of a Quinolizidine-Modified 4-Aminoquinoline: A Potent Anti-P. falciparum and Anti-P. vivax Blood-Stage Antimalarial” (Molecules : A Journal of Synthetic Chemistry and Natural …, 2017)
The source holds more than one record for some entries. Only these are listed. The source may hold further records. Values given together do not match, cause unknown; they may come from other doses, times, organisms or constructs than stated.

Assay: Pharmacokinetics in CD-1 mice after oral administration
Type: in vivo, mouse
Details: 10 mg/kg oral, single dose in SSV, plasma
Procedure: Samples from the pharmacokinetic studies were analyzed under the following conditions: UPLC interfaced with a Premiere XE triple Quadrupole, Waters. A gradient from 2 to 100% (Water, MeOH, 5 mM Ammonium Acetate) over 1.3 min was used in Acquity HSS T3 (dimensions 2.1 by 50 mm, 1.8 µm column, 40 °C temperature, flow rate 0.5 mL/min). Detection was performed in MRM (ESI positive, Q1/Q3 330.16/152.00, Cone Voltage 45 V; Extractor 5 V; Capillary 3.4 kV). The limit of detection was 1 ng/mL. Pharmacokinetic parameters were determined by Non-Compartmental Analysis, using the linear trapezoidal rule and uniform weight.
Pharmacokinetic data were collected in mice by testing the racemate and the enantiomers at the same single dose, and vehicle-utilized for in vivo studies (see composition in paragraph 4.4). Briefly, male CD-1 mice (Charles River Laboratories) weighing 18–22 g received single dose (10 mg/kg) oral administrations of the AM1 racemate and single enantiomers, each dissolved in SSV. For each experiment, twenty-four mice/dose and three mice/time-point were used. Blood samples were collected at eight selected time-points (15, 30 and 60 min; 2, 4, 6, 8 and 24 h) under ethyl ether anaesthesia. […] Pharmacokinetic plasma samples (spiked with internal standard) were filtered (Sirocco filter plate, Waters) under vacuum, and 5 µL analysed by LC-MS/MS.

Clc1ccc2c(NC[C@@H]3CCCN4CCCC[C@H]34)ccnc2c1 (relative stereo)
Cmax: 99.6 nM and 32.78 ng/mL
